Compound potency records, mixed from different reports. Data source: NIAID ChemDB in PubChem.

Common to all: growth or infection tests; agent: Mycobacterium tuberculosis

Neighbouring rows are from separate reports. A number after MIC or MFC names an inhibition level or a share of isolates. Two numbers with a dash give a range or band. Blank or dashed fields: not listed here. Inhibition is in % at the dose shown (toxicity tests: loss of growth or viability). MIC bound comes from a single tested concentration. ECn: concentration that inhibits the pathogen or its effect by n%.

structure	strain or isolate	read-out	tested at	read by	result
O=C(N/N=C/c1ccc(Cl)cc1Cl)c1cc(-c2ccc(F)cc2F)ccc1O	H37Rv	MIC		resazurin	>6.25 µg/mL
CCn1c(SCC(=O)N/N=C/c2ccc(OC)cc2)nnc1-c1ccco1	H37Rv	inhibition	6.25 µg/mL		18%
Cc1[nH]c2ccc(N(C)C)cc2c(=O)c1CN1CCCCC1	H37Rv	MIC bound		BACTEC	>12.5 µg/mL
O=C(Nc1ccc(N2CCSCC2)cc1)c1ccc(-c2ccccc2)cc1	103471	MIC			>16 µg/mL
N#Cc1ccc(Nc2nc(Oc3cccc4cccnc34)nc(N3CCN(c4ncccn4)CC3)n2)cc1C(F)(F)F	H37Rv	MIC96		agar	200 µg/mL
COc1c(N2CC/C(=N/OCc3ccc(F)cc3)C(N)C2)c(F)cc2c(=O)c(C(=O)O)cn(C3CC3)c12	H37Rv	MIC		resazurin	4 µg/mL
N#Cc1ccc(Nc2nc(Oc3cccc4cccnc34)nc(N3CCN(c4cccc(C(F)(F)F)c4)CC3)n2)cc1C(F)(F)F	H37Rv	MIC99		BACTEC	6.25 µg/mL
O=C1c2ccccc2-c2nc3ccccc3n21	18b	MIC		resazurin	4 µg/mL
Clc1ccc(CNc2cccc(N3CCSCC3)c2)cc1	103471	MIC			8 µg/mL
FC(F)(F)c1cc(Br)c2ccc3ncccc3c2n1	H37Rv	MIC bound		BACTEC	>12.5 µg/mL
CCCOC(=O)C1=C(C)OC23OC(N)=C(C#N)C12C(=O)c1ccccc13	Clinical isolate	MIC		resazurin	16 µg/mL
CCn1c(SCC(=O)N/N=C/C=C/c2ccc([N+](=O)[O-])o2)nnc1-c1ccco1	H37Rv	MIC			>6.25 µg/mL
CN=C1NC(=O)CC(C(=O)Nc2ccc3ccccc3c2)S1	18b	MIC		resazurin	8 µg/mL
COC(=O)/C1=C/c2c([nH]c3ccc(F)cc23)/C(C(=O)OC)=C\c2c1[nH]c1ccc(F)cc21	H37Rv	EC50		resazurin / absorbance	1.68 µM
CN1CCN(c2ccc(NCc3ccc(Cl)cc3)cc2)CC1	103471	MIC			>16 µg/mL
C=C1C(=O)OC2CC3(C)CC(O)CC(=C)C3CC12	H37Rv	MIC bound		BACTEC	>12.5 µg/mL
O=C(N/N=C/c1ccccc1)c1cc(-c2ccc(F)cc2F)ccc1O	H37Rv	inhibition	6.25 µg/mL	BACTEC	0%
COC(=O)C1C(O)C(C)C(OC(C)=O)C(C)/C=C\C=C(/C)C(=O)Nc2c(C)c(OC(C)=O)c3c(c2O)C(=O)C(C)=C2OCOC(=C23)/C(C)=C/C(C)(O)C(O)C(C)C1O	KM-R	MIC			12.5 µg/mL
COc1cccc(CO/N=C2/CCN(c3c(F)cc4c(=O)c(C(=O)O)cn(C5CC5)c4c3OC)CC2N)c1	H37Rv	MIC		resazurin	4 µg/mL
COc1cccc2c1C(=O)c1c(O)c3c(c(O)c1C2=O)C[C@@](O)(/C(C)=N/NC(=O)CO)CC3OC1CC(N)C(O)C(C)O1.Cl	PZA-R	MIC			6.3 µg/mL
COc1ccccc1Oc1ccccc1	H37Rv	MIC			125–500 µg/mL
CC(C)[Si]1(C(C)C)OC[C@H]2O[C@@H](c3cn(C)c(=O)n(C)c3=O)[C@H](OC(=S)n3ccnc3)[C@@H]2O[Si](C(C)C)(C(C)C)O1	H37Rv	inhibition	12.5 µg/mL	BACTEC	0%
CO[C@H]1/C=C/O[C@@]2(C)Oc3c(C)c(O)c4c(O)c(cc(O)c4c3C2=O)NC(=O)/C(C)=C\C=C\[C@H](C)[C@H](O)[C@@H](C)[C@@H](O)[C@@H](C)[C@H](OC(C)=O)[C@@H]1C	Schiavo	MIC			0.02 µg/mL
c1cc2c(N3CCOCC3)cc(N3CCOCC3)nc2nc1N1CCCCC1	H37Rv	EC50		BACTEC	>6.25 µg/mL
COc1ccc(-c2csc(NC(c3cccc([N+](=O)[O-])c3)C3CCCCC3=O)n2)cc1	H37Rv	MIC		broth dilution / agar / visual reading	12.5 µg/mL
COC(=O)/C1=C/c2c([nH]c3ccccc23)/C(C(=O)OC)=C\c2c1[nH]c1ccccc21	H37Rv	EC50		resazurin / absorbance	0.24 µM
FC(F)(F)c1cccc(NC(=S)SCc2ccc(Cl)c(Cl)c2)c1	H37Rv	inhibition	6.25 µg/mL	resazurin	9%
Clc1ccc2c(Cl)cc(N3CCOCC3)nc2n1	H37Rv	EC50		BACTEC	>6.25 µg/mL
CN(N=O)C1=NC2(CCCCC2)P(=O)(NNc2ncccn2)O1	H37Rv	inhibition	12.5 µg/mL	BACTEC	0%
NNC(=O)c1ccncc1	Isolate K	MIC			0.062 µg/mL
N#Cc1ccc(Nc2nc(Oc3cccc4cccnc34)nc(N3CCN(c4cccc(Cl)c4)CC3)n2)cc1C(F)(F)F	H37Rv	MIC98		agar	25 µg/mL
O=C(/C=C/C=C/c1ccc2c(c1)OCO2)N1CCCCC1	H37Rv	MIC		PCR	>100 µg/mL
O=C1CCCCC1C(Nc1nc(-c2ccc(O)cc2)cs1)c1cccc([N+](=O)[O-])c1	H37Rv	MIC		broth dilution / agar / visual reading	50 µg/mL
NC[C@H]1O[C@H](O[C@H]2[C@H](O)[C@@H](O[C@H]3O[C@H](CO)[C@@H](O)[C@H](N)[C@H]3O)[C@H](N)C[C@@H]2N)[C@H](O)[C@@H](O)[C@@H]1O	Isolate 10	MIC			32 µg/mL
COc1cc(C2=NN(C(=O)COc3ccc4ccccc4c3)[C@H](Cc3ccccc3)C2)c(C)cc1OCC(=O)O	H37Rv	inhibition	6.25 µg/mL		18%
C[C@@H]1CN(c2c(F)c(N)c3c(=O)c(C(=O)O)cn(C4CC4)c3c2F)C[C@H](C)N1	Isolate 13	MIC			0.13 µg/mL
O=C(OCC(F)(F)F)c1cnccn1	Clinical isolate LFL	MIC			50 µg/mL
Cc1cc2c(c3c1c(=O)c1ccccc1n3C)C=CC(C)(C)O2	PZA-R	MIC			6.3 µg/mL
CC(=O)Nc1ccc2c(Cl)cc(N3CCCCC3)nc2n1	H37Rv	EC50		BACTEC	>6.25 µg/mL
Clc1ccc(N2CCN(c3ccccc3Cl)CC2)nn1	18b	MIC		resazurin	16 µg/mL
CN(C)CCSCC(=O)N1c2ccccc2Sc2ccccc21.Cl	H37Rv	MIC bound		BACTEC	>12.5 µg/mL
C[C@H]1COc2c(N3CCN(C)CC3)c(F)cc3c(=O)c(C(=O)O)cn1c23	Isolate 15	MIC			0.25 µg/mL
N#Cc1c(Cl)nsc1-c1ccc([N+](=O)[O-])cc1	H37Rv	MIC bound		BACTEC	>12.5 µg/mL
COc1cc(CO/N=C2/CCN(c3c(F)cc4c(=O)c(C(=O)O)cn(C5CC5)c4c3OC)CC2N)cc(OC)c1	H37Rv	MIC		resazurin	16 µg/mL
CCn1c(SCC(=O)N/N=C/c2cc(O)ccc2Br)nnc1-c1ccco1	H37Rv	EC50			>6.25 µg/mL
COc1c(N2CC/C(=N/OCc3ccc4c(c3)OCCO4)C(N)C2)c(F)cc2c(=O)c(C(=O)O)cn(C3CC3)c12	H37Rv	MIC		resazurin	8 µg/mL
Cc1ccc(/C=N/NC(=O)c2cc(-c3ccc(F)cc3F)ccc2O)cc1	H37Rv	MIC		resazurin	>6.25 µg/mL
C[C@]1(COc2ccc(N3CCC(Oc4ccc(OC(F)(F)F)cc4)CC3)cc2)Cn2cc([N+](=O)[O-])nc2O1	36 strains (INH-resistant)	MIC90			0.013 µg/mL
CC(=O)Oc1c(C)c2c(O)c3c1C1=C(OCOC1=C(C)C3=O)/C(C)=C/[C@@](C)(O)[C@H](O)[C@@H](C)[C@@H](O)[C@H](C(=O)O)[C@H](O)[C@H](C)C(O)[C@H](C)/C=C\C=C(/C)C(=O)N2	PAS-R	MIC			3.2 µg/mL
C(=C\c1ccccc1)/CCNc1cccc(N2CCSCC2)c1	103471	MIC			>16 µg/mL
Cc1ccc2c(Cl)c(Cc3ccccc3)c(Cl)nc2n1	H37Rv	EC50		BACTEC	<6.25 µg/mL
N#CCCN(CCC#N)c1ccc(/C=C2/N=C(COc3ccc(Cl)cc3Cl)OC2=O)cc1	H37Rv	inhibition	12.5 µg/mL	BACTEC	-11%
CO[C@H]1/C=C/O[C@@]2(C)Oc3c(C)c(O)c4c(O)c(c(/C=N/N5CCN(C)CC5)c(O)c4c3C2=O)NC(=O)/C(C)=C\C=C\[C@H](C)[C@H](O)[C@@H](C)[C@@H](O)[C@@H](C)[C@H](OC(C)=O)[C@@H]1C	HN878	MIC		BACTEC	0.031 µg/mL
N#Cc1ccc(Nc2nc(Oc3cccc4cccnc34)nc(N3CCN(c4ccc(F)cc4)CC3)n2)cc1C(F)(F)F	H37Rv	MIC		BACTEC	>6.25 µg/mL
O=C1c2ccccc2C2=Nc3ccccc3SC12O	Clinical isolate	MIC		resazurin	2 µg/mL
Cc1ccc2c(Cl)c(Cc3ccccc3)c(N3CCOCC3)nc2n1	H37Rv	inhibition	6.25 µg/mL	BACTEC	20%
COc1cc(/C=C/[N+](=O)[O-])cc(Oc2c(I)cc(CC(=O)O)cc2I)c1OC	H37Rv	MIC			1000 µg/mL
O=C1CCCCC1C(Nc1nc(-c2ccc(O)cc2)cs1)c1ccc(O)cc1	H37Rv	MIC		broth dilution / agar / visual reading	6.25 µg/mL
O=C(N/N=C/c1ccccc1O)c1cc(-c2ccc(F)cc2F)ccc1O	H37Rv	MIC		resazurin	>6.25 µg/mL
NC(=O)c1cnccn1	W7804	MIC			30 µg/mL
O=C1c2ccccc2-c2nn(C(=O)c3ccccc3)c3cccc1c23	18b	MIC		resazurin	8 µg/mL
CN(Cc1ccc(Cl)cc1)C(=S)SCc1cccs1	H37Rv	MIC bound		BACTEC	≤128 µg/mL
COc1cc(/C=N/NC(=O)c2cc(-c3ccc(F)cc3F)ccc2O)ccc1O	H37Rv	inhibition	6.25 µg/mL	resazurin	27%
CC(C)c1c(O)c(O)c2c(c1O)C(=O)C(O)=C1C(C)(C)CCC[C@@]12C	H37Rv	inhibition	12.5 µg/mL	BACTEC	65%
COc1cc(C=O)cc(Oc2c(OC)cc(C=O)cc2[N+](=O)[O-])c1O	H37Rv	MIC			1000 µg/mL
Clc1ccc(CNc2cccc(-n3ccnc3)c2)cc1	103471	MIC			4 µg/mL
O=c1ccc2c(N3CCOCC3)cc(N3CCOCC3)nc2[nH]1	H37Rv	EC50		BACTEC	>6.25 µg/mL
COC(=O)Cn1ccc2ccc(S(=O)(=O)N3CCCCC3)cc21	18b	MIC		resazurin	1 µg/mL
COc1ccc(OC)c(CO/N=C2/CCN(c3c(F)cc4c(=O)c(C(=O)O)cn(C5CC5)c4c3OC)CC2N)c1	H37Rv	MIC		resazurin	8 µg/mL
CCOC(=O)CSc1nnc(-c2ccco2)n1CC	H37Rv	EC50			>6.25 µg/mL
O=C1N=C(C=c2ccc(=Cc3[nH]c(=O)[nH]c3O)cc2)C(=O)N1	H37Rv	inhibition	12.5 µg/mL	BACTEC	0%
Nc1ccc2c(N3CCOCC3)cc(N3CCOCC3)nc2n1	H37Rv	EC50		BACTEC	>6.25 µg/mL
C/C(=N\OC(=O)c1c(-c2c(Cl)cccc2Cl)noc1C)c1ccccc1O	H37Rv	inhibition	6.25 µg/mL	resazurin	-8%
COC(=O)Cc1cc(N)c(Oc2cc(C(C(C)=O)C(C)=O)cc(OC)c2OC(C)=O)c(N)c1	H37Rv	MIC			1000 µg/mL
CCC[CH2][Sn]1([CH2]CCC)[O]C(=O)CN=C(C)c2ccccc2[O]1	PZA-R	MIC			6.3 µg/mL
C/C=C1\C(=O)O[C@]23C=C[C@@H]4C(C(=O)OC)=CO[C@H](O[C@@H]12)[C@@H]43	MDR3 clinical isolate	MBC		MTT	3.8 µg/mL
Cc1cc(N/N=C/c2ccc([N+](=O)[O-])o2)c2cc3c(cc2n1)OCO3	H37Rv	MIC bound		BACTEC	≤12.5 µg/mL
O=C1CCCCC1C(Nc1nc(-c2ccc(O)cc2)cs1)c1ccc(F)cc1	H37Rv	MIC		broth dilution / agar / visual reading	12.5 µg/mL
CC1=C\[C@H](O)CC(=O)Cc2nc(co2)C(=O)N2CCC=C2C(=O)O[C@@H](C(C)C)[C@@H](C)/C=C/C(=O)NC\C=C\1	H37Rv	MIC bound		BACTEC	>12.5 µg/mL
COc1cc(/C=C/[N+](=O)[O-])ccc1OC(C)=O	H37Rv	MIC			62.5 µg/mL